Measured values from several laboratories, pooled; numbers as filed in NIAID ChemDB.

Shared fields: tests in culture

Inhibition is in % at the dose shown (toxicity tests: loss of growth or viability).

| SMILES | organism | endpoint | method | dose | strain or isolate | cells | value |
|---|---|---|---|---|---|---|---|
| Cc1nc(NCCCCNc2ccnc3cc(Cl)ccc23)nc(-c2ccccc2)c1C(=O)OC(C)C | Cryptococcus neoformans | MIC99 |  |  | WP |  | 5.7 µg/mL |
| COc1cccc2c1C(=O)c1cnn(C)c1C2=O | Cryptosporidium parvum | inhibition |  | 10 µM |  |  | <10% |
| CCC(C)CC(C)CCCCCCCCC(=O)N[C@H]1C[C@@H](O)[C@H](NCCN)NC(=O)[C@@H]2[C@@H](O)CCN2C(=O)[C@H]([C@H](O)CCN)NC(=O)[C@H]([C@H](O)[C@@H](O)c2ccc(O)cc2)NC(=O)[C@@H]2C[C@@H](O)CN2C(=O)[C@H]([C@@H](C)O)NC1=O | Cryptococcus gattii | MIC | broth dilution |  | ICB 107 |  | 128 µg/mL |
| C[C@@H](c1nc(-c2ccc(C#N)cc2)cs1)[C@](O)(Cn1cncn1)c1cc(F)ccc1F | Cryptococcus gattii | MIC90 | broth dilution |  | VG IIc |  | 0.5 µg/mL |
| NCCCC[C@H](NC(=O)[C@@H](N)CCCCN)C(=O)N[C@@H](CCC(N)=O)C(=O)N[C@@H](CCCN=C(N)N)C(=O)O | Cryptococcus neoformans | inhibition |  | 100 µM | ATCC 32264 |  | 100% |
| COc1cc(/C=C/C=C\c2ccccc2)oc(=O)c1C | Cryptosporidium parvum | inhibition |  | 50 µM |  |  | 11% |
| NC[C@@H]1O[C@H](O[C@H]2[C@@H](O)[C@H](O[C@@H]3[C@@H](O)[C@H](N)C[C@H](N)[C@H]3O[C@H]3O[C@H](CO)[C@@H](O)[C@H](O)[C@H]3N)O[C@@H]2CO)[C@H](N)[C@@H](O)[C@@H]1O | Cryptosporidium parvum | inhibition | cell count | 1000 µg/mL |  | MDBK | 79.3% |
| Cn1nc(Cc2ccc(Cl)cc2)c2ccccc2c1=O | Cryptococcus neoformans | MFC | broth dilution |  | Clinical isolate (IM 000319) |  | 250 µg/mL |
| O=C1/C(=C/c2ccccc2)Oc2cc(O)ccc21 | Cryptosporidium parvum | inhibition |  | 50 µM |  |  | 10% |
| CC[C@@H](C(=O)[C@@H](C)[C@@H](O)[C@H](C)CCc1ccc(C)c(O)c1C(=O)O)[C@H]1O[C@](CC)([C@H]2CC[C@](O)(CC)[C@H](C)O2)C[C@@H]1C | Cryptosporidium parvum | inhibition |  | 2 µg/mL |  | A549 | 70% |
| CN[C@H]1CC[C@@H](c2ccc(Cl)c(Cl)c2)c2ccccc21 | Cryptococcus neoformans | MIC90 | broth dilution |  | A2-102-5 |  | 5 µg/mL |
| O=C1COc2cc(O)ccc21 | Cryptosporidium parvum | inhibition |  | 10 µM |  |  | 0% |
| CCN(CC)c1ccc2cc(NNN)c(=O)oc2c1 | Cryptococcus gattii | MIC | broth dilution |  |  |  | >990 µM |
| CCC(C)n1ncn(-c2ccc(N3CCN(c4ccc(OC[C@H]5CO[C@](Cn6cncn6)(c6ccc(Cl)cc6Cl)O5)cc4)CC3)cc2)c1=O | Cryptococcus gattii | MIC | broth dilution |  | L48 |  | 2 µg/mL |
| CC1(C)O[C@H]2[C@H](O)[C@@H](N=[N+]=[N-])C=C(c3ccc(C=O)cc3)[C@H]2O1 | Cryptococcus neoformans | inhibition | broth dilution / turbidity | 31.25 µg/mL | ATCC 32264 |  | 0% |
| COc1ccc(/C=C\C=C\c2cc(OC)cc(=O)o2)cc1 | Cryptosporidium parvum | inhibition |  | 50 µM |  |  | 9% |
| CC[C@@H](C(=O)[C@@H](C)[C@@H](O)[C@H](C)CCc1ccc(C)c(O)c1C(=O)O)[C@H]1O[C@](CC)([C@H]2CC[C@](O)(CC)[C@H](C)O2)C[C@@H]1C | Cryptosporidium parvum | inhibition | luminescence | 0.02 µg/mL | IOWA | MDCK | 0% |
| NC[C@@H]1O[C@H](O[C@H]2[C@@H](O)[C@H](O[C@@H]3[C@@H](O)[C@H](N)C[C@H](N)[C@H]3O[C@H]3O[C@H](CO)[C@@H](O)[C@H](O)[C@H]3N)O[C@@H]2CO)[C@H](N)[C@@H](O)[C@@H]1O | Cryptosporidium parvum | EC50 | antigen |  |  | MDBK | <2 µg/mL |
| C=C/C=C/c1cc(OC)cc(=O)o1 | Cryptosporidium parvum | EC50 |  |  |  |  | 10–25 µM |
| CCC(C)n1ncn(-c2ccc(N3CCN(c4ccc(OC[C@H]5CO[C@](Cn6cncn6)(c6ccc(Cl)cc6Cl)O5)cc4)CC3)cc2)c1=O | Cryptococcus neoformans | MFC99 |  |  | A25838 |  | 0.25 µg/mL |
| COc1cc(/C=C2\Oc3cc(O)cc(O[C@@H]4O[C@H](CO)[C@@H](O)[C@H](O)[C@H]4O)c3C2=O)cc(OC)c1OC(C)=O | Cryptosporidium parvum | inhibition |  | 10 µM |  |  | 0% |
| Cc1cccc2c1C(=O)c1cnn(C)c1C2=O | Cryptosporidium parvum | inhibition |  | 25 µM |  |  | <10% |
| COc1cc(/C=C/C=C\c2ccccc2OC)oc(=O)c1 | Cryptosporidium parvum | inhibition |  | 10 µM |  |  | 6% |
| CC(=O)Oc1ccccc1C(=O)Nc1ncc([N+](=O)[O-])s1 | Cryptosporidium parvum | inhibition |  | 2 µg/mL |  | A549 | 41% |
| Oc1ccccc1N=Cc1ccc2c(c1)OCO2 | Cryptococcus gattii | MIC99 |  |  | 135L/03 |  | 11.3 µg/mL |
| COc1ccc(/C=C2\Oc3cc(O)ccc3C2=O)cc1OC | Cryptosporidium parvum | inhibition |  | 50 µM |  |  | 93% |
| Cn1ncc2c1C(=O)c1c(O)c3c(c(O)c1C2=O)CCCC3 | Cryptosporidium parvum | inhibition |  | 25 µM |  |  | <10% |

The last 2 rows once more:

| SMILES | organism | endpoint | method | dose | strain or isolate | cells | value |
|---|---|---|---|---|---|---|---|
| COc1ccc(/C=C2\Oc3cc(O)ccc3C2=O)cc1OC | Cryptosporidium parvum | inhibition |  | 50 µM |  |  | 93% |
| Cn1ncc2c1C(=O)c1c(O)c3c(c(O)c1C2=O)CCCC3 | Cryptosporidium parvum | inhibition |  | 25 µM |  |  | <10% |

ECn: concentration that inhibits the pathogen or its effect by n%. MIC50, MIC90 and the like: level of inhibition, or share of isolates inhibited. Two numbers with a dash give a range or band. Blank or dashed fields: not listed here. Rows are shuffled and stem from different studies.